According to article PMC8489136, “LncRNA MALAT1 was regulated by HPV16 E7 independently of pRB in cervical cancer cells”:

Key:
[1] = molecular target: myc-E7FL (Human papillomavirus type 16) (UniProt P03129); test: EMSA; details: C33A nuclear extract; 5'-biotin; EMSA buffer, pH and temperature not given; protein in an extract; residues 1-98; protein details: myc; label: biotin
[2] = molecular target: T1, myc-E7ΔN (Human papillomavirus type 16) (UniProt P03129); test: EMSA; details: C33A nuclear extract; 5'-biotin; EMSA buffer, pH and temperature not given; protein in an extract; residues 28-98; protein details: myc; label: biotin
T1 sequence (looked up): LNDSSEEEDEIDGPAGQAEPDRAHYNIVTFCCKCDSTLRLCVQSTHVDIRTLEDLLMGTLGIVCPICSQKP

Sequence: AGCTGCCACCCCGCCCCCATGCCAT (double strand) [MALAT1 promoter probe2]
- binding result [1]: binds
- binding result [2]: binds

Sequence: CAGGCGTTAGGGCGGGGCGCGCGTGC (double strand) [MALAT1 promoter probe1]
- binding result [1]: binds
- binding result [2]: binds

The exact form of at least one protein or probe is not confirmed. Where cells or extracts were used, other partners may take part. For some of these results: Protein sequences can lack the tags named with them.
